{"source": "patent US20250281457A1", "about": "“TREATMENT OR PREVENTION OF DENGUE VIRAL INFECTION” (Janssen Pharmaceuticals, Inc., priority 2022, published 2025)", "assay": "Taste and overall acceptability questionnaire (Example 2)", "assay_type": "in vivo, human"}
{"smiles": "COc1cc(NC(C(=O)c2c[nH]c3ccc(OC(F)(F)F)cc23)c2ccc(Cl)cc2OC)cc(S(C)(=O)=O)c1", "note": "(centres unmarked) [Compound (a)]", "values": [{"measurement": "Overall acceptability rated as \"good to take\" (medicine for daily intake for a long period)", "setting": "Treatment J (800 mg SF2b, fasted)", "value": "7 (87.5%) participants (%)"}, {"measurement": "Overall acceptability rated as \"good to take\" (medicine for daily intake for a long period)", "setting": "Treatment K (800 mg SF2b, high-fat, high-calorie)", "value": "6 (75.0%) participants (%)"}]}
